Compound potency records, mixed from different reports. Data source: NIAID ChemDB in PubChem.

Common to all: enzyme or target tests; organism: HIV-1; protein: Protease; endpoint: inhibition

Neighbouring rows are from separate reports. Inhibition is in % at the dose shown (toxicity tests: loss of growth or viability). Blank or dashed fields: not listed here.

smiles | strain | method | tested at | value
CC(C)(C)NC(=O)[C@H]1N(C(=O)[C@@H](O)[C@H](Cc2ccccc2)NC(=O)[C@H](CC(N)=O)NC(=O)COc2cccc(Nc3ccccc3)c2)CSC1(C)C | - | - | 0.05 µM | 99.1%
CC(C)COC(=O)[C@H](CC(C)C)NC(=O)C(=O)N[C@@H](CC(C)C)C(=O)OCC(C)C | - | absorbance | 10 µM | <10%
O=c1[nH]c2ccccc2cc1CNC1CCCC1 | - | substrate cleavage / fluorescence | 20 µM | -63%
O=C(NCCc1ccccc1)[C@@H]1O[C@]2(c3ccccc3)CN(C(c3ccccc3)c3ccccc3)C(=O)[C@H]1O2 | - | FRET | 10 µM | 0%
COC(=O)[C@@H](NC(=O)CC(Cc1ccccc1)C(=O)N[C@H](C(=O)OC)C(C)C)C(C)C | - | absorbance | 10 µM | <10%
Cc1cc(C)[n+](C[n+]2[nH]c(C)cc2C)[nH]1.[Cl-].[Cl][Au-]([Cl])([Cl])[Cl] | - | substrate cleavage | 25 µM | 14.7%
O=C(NCc1ccccc1)N(Cc1ccccc1)CC(O)CN(Cc1ccccc1)C(=O)NCc1ccccc1 | - | - | 10 µM | 19%
CC(C)C[C@H](NC(=O)C[C@@H]1CC[C@H](NC(=O)[C@H](Cc2ccccc2)NC(=O)[C@@H](NC(=O)OCc2ccccc2)C(C)C)[C@H]1O)C(=O)NC(C)(C)C | - | absorbance | 10 µM | 0%
OC(CCc1cc(F)cc(F)c1)c1cnc2sc3c(n12)CCCCC3 | - | fluorescence | 10 µM | 99%
COC(=O)[C@@H](NC(=O)N(Cc1ccccc1)CC(O)CN(Cc1ccccc1)C(=O)N[C@H](C(=O)OC)C(C)C)C(C)C | - | - | 10 µM | 36%
CC[C@@H](C)[C@H](NC(=O)[C@@H]1CCCN1C(=O)[C@@H](O)[C@H](Cc1ccccc1)NC(=O)[C@H](CC(=O)N(C)C)NC(=O)CCc1ccccc1)C(=O)N[C@H](C(N)=O)C(C)C | - | - | 5 µM | 23.5%
CC(=O)O[C@H](CC(C)[C@@H]1CC[C@]2(C)C3=CCC4C(C)(C)C(=O)CC[C@]4(C)C3CC[C@@]12C)[C@H](OC(C)=O)C(C)(C)O | - | substrate cleavage / fluorescence | 100 µg/mL | 41.2%
O=C(NC(CO)c1ccccc1)[C@@H](CSC[C@@H](Cc1ccccc1)C(=O)N[C@H](CO)c1ccccc1)Cc1ccccc1 | - | - | 10 µM | 41%
CCOC(=O)c1cn(CC(O)CSc2ccccc2C(=O)NC(C)(C)C)cc1-c1ccccc1 | - | - | 200 µM | 29%
OC(CCc1ccc(F)cc1)c1cnc2sc3c(n12)CCCCC3 | - | fluorescence | 10 µM | 84%
CC(C)(C)NC(=O)[C@@H]1CCCN1C(=O)[C@@H](O)[C@H](Cc1ccccc1)NC(=O)[C@H](CC(N)=O)NC(=O)OCc1ccccc1 | - | - | 5 µM | 96.5%
COC(=O)[C@@H](NC(=O)C[C@@H]1CC[C@@H](O)[C@@H]1NC(=O)[C@H](C)NC(=O)OC(C)(C)C)C(C)C | - | absorbance | 10 µM | 10%
CC(C)(C)NC(=O)N(Cc1ccccc1)CC(O)CN(Cc1ccccc1)C(=O)NC(C)(C)C | - | - | 10 µM | 50%
CC(C[C@@H](OC(=O)CC(C)(C)C(=O)O)[C@H](OC(=O)CC(C)(C)C(=O)O)C(C)(C)O)[C@@H]1CC[C@]2(C)C3=CCC4C(C)(C)C(OC(=O)CC(C)(C)C(=O)O)CC[C@]4(C)C3CC[C@@]12C | - | substrate cleavage / fluorescence | 100 µg/mL | 62%
OC(CCCCc1ccccc1)c1cnc2sc3c(n12)CCCCC3 | - | fluorescence | 3.3 µM | 98%
CCOC(=O)c1cccn1CC(O)CNc1ccccc1 | - | - | 200 µM | 17%
CCOC(=O)[C@H](CC(C)C)NC(=O)[C@H](Cc1ccccc1)NC(=O)[C@@H](O)[C@H](Cc1ccccc1)NC(=O)OC(C)(C)C | - | HPLC | 40 µM | 0%
CC(=O)N1C2C3(CO)C(c4ccccc4)C4(CO)C1C1(CO)C(c5ccccc5)C2(CO)C3N(C(C)=O)C41 | - | absorbance | 50 µM | 6%
CCC(C)(C)NC(=O)[C@@H]1CCCN1C(=O)[C@@H](O)[C@H](Cc1ccccc1)NC(=O)[C@H](CC(N)=O)NC(=O)OCc1ccccc1 | - | - | 5 µM | 94.2%
CC(C)(C)NC(=O)N(Cc1ccccc1)C[C@H](O)[C@@H](O)CN(Cc1ccccc1)C(=O)NC(C)(C)C | - | - | 10 µM | 78%
CC(C)(CO)NC(=O)[C@@H]1CSCN1C(=O)[C@@H](O)[C@H](Cc1ccccc1)NC(=O)[C@H](CS(C)(=O)=O)NC(=O)COc1cccc2ccccc12 | - | - | 0.05 µM | 91.8%
CC(C)COC(=O)[C@H](CC1CCCCC1)NC(=O)C(=O)N[C@@H](CC1CCCCC1)C(=O)OCC(C)C | - | absorbance | 10 µM | <10%
O=c1[nH]c2ccccc2cc1CNC1CC1 | - | substrate cleavage / fluorescence | 20 µM | -4.5%
CC(C)(C)NC(=O)[C@@H]1CSCN1C(=O)[C@@H](O)[C@H](Cc1ccccc1)NC(=O)[C@@H](NC(=O)COc1cccc2ccccc12)C(C)(C)C | - | - | 0.05 µM | 77.4%
CC(C[C@@H](O)[C@H](O)C(C)(C)O)[C@@H]1CC[C@]2(C)C3=CCC(C(C)(C)C(=O)O)[C@](C)(CC(=O)O)C3CC[C@@]12C | - | substrate cleavage / fluorescence | 100 µg/mL | 67.4%
CCCCCOC(=O)[C@H](Cc1ccccc1)NC(=O)C(=O)N[C@@H](Cc1ccccc1)C(=O)OCCCCC | - | absorbance | 10 µM | <10%
CCOC(=O)c1cn(CC(O)CNc2cccc(N)c2)cc1-c1ccccc1 | - | - | 200 µM | 22%
O=C(Oc1ccccc1)N1C2C3(CO)C(c4ccccc4)C4(CO)C1C1(CO)C(c5ccccc5)C2(CO)C3N(C(=O)Oc2ccccc2)C41 | - | absorbance | 25 µM | 17%
CC[C@H](C)[C@H](NC(=O)OC(C)(C)C)C(=O)N[C@H]1CC[C@@H](CC(=O)N[C@H](C(=O)OC)C(C)C)[C@@H]1O | - | absorbance | 10 µM | 15%
O=C(NC(CO)c1ccccc1)[C@H](Cc1ccccc1)CS(=O)C[C@@H](Cc1ccccc1)C(=O)N[C@H](CO)c1ccccc1 | - | - | 10 µM | 47%
O=C(Nc1ccccc1)N(Cc1ccccc1)CC(O)CN(Cc1ccccc1)C(=O)Nc1ccccc1 | - | - | 10 µM | 16%
OC(CCc1ccccc1)c1cnc2sc3c(n12)CCC3 | - | fluorescence | 3.3 µM | 85%
CC(C)C[C@H](NC(=O)C[C@@H]1CC[C@@H](O)[C@@H]1NC(=O)[C@H](Cc1ccccc1)NC(=O)[C@@H](NC(=O)OCc1ccccc1)C(C)C)C(=O)NC(C)(C)C | - | absorbance | 10 µM | 37%
COc1cccc2cc(CN(C(=O)c3ccccc3)C3CCCC3)c(=O)[nH]c12 | - | substrate cleavage / fluorescence | 20 µM | 6.3%
CO[C@@H]([C@@H](CC(C)[C@@H]1CC[C@]2(C)C3=CCC4C(C)(C)C(OC(=O)CCC(=O)O)CC[C@]4(C)C3CC[C@@]12C)OC(C)(C)C)C(C)(C)O | - | substrate cleavage / fluorescence | 100 µg/mL | 51.2%
CCOC(=O)c1cn(CC(O)CSc2ccccc2)cc1-c1ccccc1 | - | - | 200 µM | 24%
OC(CCc1ccco1)c1cnc2sc3c(n12)CCCCC3 | - | fluorescence | 10 µM | 92%
CCOC(=O)c1ccn(CC(O)CNc2ccccc2)c1 | - | - | 200 µM | 21%
CC(C)(C)NC(=O)NCC(O)CNC(=O)NC(C)(C)C | - | - | 10 µM | 8%
COC(=O)[C@@H](NC(=O)C[C@H]1CC[C@H](O)[C@H]1NC(=O)[C@H](Cc1ccccc1)NC(=O)OC(C)(C)C)C(C)C | - | absorbance | 10 µM | 27%
C#CCNC(=O)[C@@H]1O[C@]2(c3ccccc3)CN(C(c3ccccc3)c3ccccc3)C(=O)[C@H]1O2 | - | FRET | 10 µM | 0%
COC(=O)[C@@H](NC(=O)C[C@H]1CC[C@@H](NC(=O)[C@H](Cc2ccccc2)NC(=O)OC(C)(C)C)[C@@H]1O)C(C)C | - | absorbance | 10 µM | 8%
CC(C)(C)NC(=O)[C@@H]1CN(Cc2cncs2)CCN1C[C@@H](O)C[C@@H](Cc1ccccc1)C(=O)N[C@H]1c2ccccc2C[C@H]1O | IIIB | fluorescence | 0.0005 µM | 61%
CC(C)COC(=O)[C@H](Cc1ccccc1)NC(=O)/C=C/C(=O)N[C@@H](Cc1ccccc1)C(=O)OCC(C)C | - | absorbance | 10 µM | <10%
COc1ccc(C2C3(CO)C4N(C(C)=O)C5C2(CO)C2N(C(C)=O)C3C4(CO)C(c3ccc(OC)cc3)C52CO)cc1 | - | absorbance | 25 µM | 7%
COC(=O)[C@H](CC(C)C)N1C[C@@H]2O[C@H](C(=O)N3CCCCC3)[C@@H](O2)C1=O | - | FRET | 10 µM | 0%
Cc1c(O)cccc1C(=O)N[C@@H](Cc1ccccc1)[C@H](O)C(=O)N1CSC(C)(C)[C@H]1C(=O)NCCN1CCOCC1 | NL4-3 | fluorescence | 0.064 µM | 13%
O=C(N[C@@H](CO)c1ccccc1)[C@@H](CSC[C@@H](Cc1ccccc1)C(=O)N[C@@H](CO)c1ccccc1)Cc1ccccc1 | - | - | 10 µM | 51%
O=C(Cc1ccccc1)N1C2C3(CO)C(c4ccccc4)C4(CO)C1C1(CO)C(c5ccccc5)C2(CO)C3N(C(=O)Cc2ccccc2)C41 | - | absorbance | 50 µM | 52%
CCOC(=O)c1cn(CC(O)CNc2ccccc2)cc1-c1ccccc1 | - | - | 200 µM | 27%
COC(=O)[C@H](CC(C)C)NC(=O)C[C@@H]1CC[C@H](NC(=O)[C@H](Cc2ccccc2)NC(=O)OC(C)(C)C)[C@H]1O | - | absorbance | 10 µM | 38%
COc1cccc2cc(CNC3CC3)c(=O)[nH]c12 | - | substrate cleavage / fluorescence | 20 µM | -12.8%
CC(C)COC(=O)C(Cc1ccccc1)NC(=O)C(=O)NC(Cc1ccccc1)C(=O)OCC(C)C | - | absorbance | 10 µM | 19%
CS(=O)(=O)C[C@H](NC(=O)COc1cccc2ccccc12)C(=O)N[C@@H](Cc1ccccc1)[C@H](O)C(=O)N1CSC[C@H]1C(=O)N[C@H](C(N)=O)c1ccccc1 | - | - | 0.05 µM | 6.1%
CC[C@H](C)[C@H](NC(=O)OC(C)(C)C)C(=O)N[C@@H]1[C@H](CC(=O)N[C@@H](CC(C)C)C(=O)OC)CC[C@H]1O | - | absorbance | 10 µM | 18%
COc1ccc(C2C3(CO)C4N(C(=O)Oc5ccccc5)C5C2(CO)C2N(C(=O)Oc6ccccc6)C3C4(CO)C(c3ccc(OC)cc3)C52CO)cc1 | - | absorbance | 50 µM | 18%
COC(=O)[C@H](CC(C)C)NC(=O)C[C@@H]1CC[C@@H](O)[C@@H]1NC(=O)[C@H](C)NC(=O)OC(C)(C)C | - | absorbance | 10 µM | 19%
CC(C)COC(=O)C(Cc1cccc2ccccc12)NC(=O)C(=O)NC(Cc1cccc2ccccc12)C(=O)OCC(C)C | - | absorbance | 10 µM | 19%
CC(C)(C)NC(=O)[C@@H]1CSCN1C(=O)[C@@H](O)[C@H](Cc1ccccc1)NC(=O)[C@H](CS(C)(=O)=O)NC(=O)CNc1cccc2ccccc12 | - | - | 0.05 µM | 71.8%
CCCNC(=O)N(Cc1ccccc1)CC(O)CN(Cc1ccccc1)C(=O)NCCC | - | - | 10 µM | 38%